According to patent US5432264A (priority 1987, dated 1995):

Test system: herpes simplex virus type 1
Type: cell-based

B1: 3-des-OH-cystatin C: Recombinant 120 amino acid human cystatin C with non-hydroxylated Pro at position 3, expressed in E. coli (protein, UniProt P01034 27-146, looked up)
Cystatin-C: SSPGKPPRLVGGPMDASVEEEGVRRALDFAVGEYNKASNDMYHSRALQVVRARKQIVAGVNYFLDVELGRTTCTKTQPNLDNCPFHDQPHLKRKAFCSFQIYAVPWQGTMTLSKSTCQDA
modifications: non-hydroxylated Pro3
notes: Recombinant 120 amino acid human cystatin C with non-hydroxylated Pro at position 3, expressed in E. coli
concentration required for inhibition of viral replication to background levels: about 0.13 mM
